Anti-infective test results gathered from many reports (values: NIAID ChemDB through PubChem).

Common to all: tests in culture; agent: Mycobacterium marinum; endpoint: MIC

Lines come from different laboratories, so protocols vary.

C=C1C(=O)[C@@]23C(=O)O[C@H]4CCC(C)(C)[C@H]5[C@H](O)OC[C@@]45[C@@H]2CC[C@@H]1[C@H]3OC(=O)c1cnccn1 ; read by: resazurin ; strain: ATCC 927 ; result: >64 µg/mL
COc1ccc(-c2c(-c3ccc(OC)cc3O)n[nH]c2C(F)(F)F)cc1 ; read by: visual reading ; result: 50 µg/mL
CCCCCCCCCCCCCCCCCCCCCC(=O)NC(CCC(=O)O)(CCC(=O)O)CCC(=O)O ; strain: ATCC 927 ; result: 54 µg/mL
COc1ccccc1-c1c(-c2ccc(O)cc2O)n[nH]c1C(F)(F)F ; read by: visual reading ; result: >50 µg/mL
C=C1C(=O)[C@@]23C(CC[C@@H]1[C@H]2OC(=O)c1ccc(F)cc1)[C@@]12COC3(O)[C@@H](O)[C@@H]1C(C)(C)CC[C@@H]2OC(C)=O ; read by: resazurin ; strain: ATCC 927 ; result: 8 µg/mL
CCOc1ccc(-c2n[nH]c(C(F)(F)F)c2-c2ccccc2)c(O)c1C ; read by: visual reading ; result: >50 µg/mL
C=C1C(=O)[C@@]23C(=O)O[C@H]4CCC(C)(C)[C@H]5C(=O)OC[C@@]45[C@@H]2CC[C@@H]1[C@H]3OC(=O)C1CCCC1 ; read by: resazurin ; strain: ATCC 927 ; result: 4 µg/mL
CCCCCCCCCCCCCCCCCCCOC(=O)NC(CCC(=O)O)(CCC(=O)O)CCC(=O)O ; strain: ATCC 927 ; result: 45 µg/mL
CCOc1ccc(-c2n[nH]c(C(F)(F)F)c2-c2ccccc2OC)c(O)c1 ; read by: visual reading ; result: 25 µg/mL
CCCCCCCN(CCCCCCC)C(=O)NC(CCC(=O)O)(CCC(=O)O)CCC(=O)O ; strain: ATCC 927 ; result: 54 µg/mL
C=C1C(=O)[C@@]23C(=O)O[C@H]4CCC(C)(C)[C@H]5C(=O)OC[C@@]45[C@@H]2CC[C@@H]1[C@H]3OC(=O)c1ccccc1 ; read by: resazurin ; strain: ATCC 927 ; result: 8 µg/mL
Cc1c(C)c(C)[c-](C)c1C.N[C@H](C(=O)[O-])c1ccccc1.[Cl][Rh+2] ; strain: ATCC 927 ; result: >250 µg/mL
CCCCCCCCCCCCCCCCOC(=O)NC(C)(CCC(=O)O)CCC(=O)O ; strain: ATCC 927 ; result: 144 µg/mL
COc1ccc(-c2c(-c3ccc(OCC(=O)NN)cc3O)n[nH]c2C(F)(F)F)cc1 ; read by: visual reading ; result: >50 µg/mL
CCCCCCCCCCCCCCCCCC(=O)NC(CCC(=O)O)(CCC(=O)O)CCC(=O)O ; strain: ATCC 927 ; result: 288 µg/mL
C=C1C(=O)[C@@]23C(=O)O[C@H]4CCC(C)(C)[C@H]5[C@H](O)OC[C@@]45[C@@H]2CC[C@@H]1[C@H]3O ; read by: resazurin ; strain: ATCC 927 ; result: >64 µg/mL

A second listing of 2 rows from above:

CCCCCCCCCCCCCCCCOC(=O)NC(C)(CCC(=O)O)CCC(=O)O ; strain: ATCC 927 ; result: 144 µg/mL
COc1ccc(-c2c(-c3ccc(OC)cc3O)n[nH]c2C(F)(F)F)cc1 ; read by: visual reading ; result: 50 µg/mL